Compound potency records, mixed from different reports. Data source: NIAID ChemDB in PubChem.

All rows: whole-cell or culture tests; organism: Herpes simplex virus 1

Inhibition is in % at the dose shown (toxicity tests: loss of growth or viability). An empty or dashed field is not shown. ECn: concentration that inhibits the pathogen or its effect by n%. Lines come from different laboratories, so protocols vary.

structure	cells	endpoint	method	tested at	strain	value
Cc1ccccc1Cn1cnc(=N)c2[nH]cnc21	BSC-1	inhibition	plaque count	25 µg/mL	-	0%
CC1=CC(=O)N(c2ccccc2)S(=O)(=O)N1COCCO	E6SM	EC50	-	-	VMW1837 (TK-)	>400 µg/mL
OC[C@H]1O[C@@H](c2cc(C(O)C(I)I)c(F)cc2F)C[C@@H]1O	E6SM	EC50	cytopathic effect	-	KOS (TK-)	>80 µg/mL
Nc1nc2c(ncn2COCCO)c(=O)[nH]1	HL	inhibition	virus yield	1 µg/mL	F	67%
CCCc1cn([C@H]2C[C@H](O)[C@@H](CO)O2)c(=O)[nH]c1=O	PRK	EC50	cytopathic effect	-	McIntyre	1.9 µg/mL
O=c1[nH]c(=O)n([C@H]2C[C@H](O)[C@@H](CO)O2)cc1I	HEP-2	inhibition	cytopathic effect	0.3 µg/mL	-	≥25%
N=c1ncn(CC2CCCCC2)c2nc[nH]c12	BSC-1	inhibition	plaque count	25 µg/mL	-	0%
O=c1[nH]c(=O)n([C@H]2C[C@H](O)[C@@H](CO)O2)cc1CCCl	VERO	inhibition	cytopathic effect	0.01 µg/mL	-	≥25%
Nc1nc2c(ncn2COC(CO)CO)c(=O)[nH]1	WI-38	inhibition	plaque count	0.5 µM	SC16	90%
Clc1ncnc2nc(-c3cscn3)[nH]c12	VERO	inhibition	plaque count	10 µg/mL	-	0%
Cc1cn([C@@H]2O[C@H](CO)[C@@H](O)[C@@H]2F)c(=O)[nH]c1=O	PRK	inhibition	cytopathic effect	0.04 µg/mL	KOS	≥25%
CCc1cn([C@H]2C[C@H](O)[C@@H](CO)O2)c(=O)[nH]c1=O	BSC-1	EC50	cytopathic effect	-	KOS	3.9 µg/mL
C/C=C/c1cn([C@H]2C[C@H](O)[C@@H](CO)O2)c(=O)[nH]c1=O	VERO	inhibition	plaque count	10 µM	F-2	68%
COCc1cn([C@H]2C[C@H](O)[C@@H](CO)O2)c(=O)[nH]c1=O	RK-13	EC50	plaque count	-	PFA-resistant	9 µM
COC(CI)c1cc([C@H]2C[C@H](O)[C@@H](CO)O2)c(F)cc1F	E6SM	EC50	cytopathic effect	-	KOS	>80 µg/mL
CC(=O)OCCOCN1C(N)=CC(N)=NS1(=O)=O	E6SM	EC50	-	-	B206 (TK-)	>400 µg/mL
Nc1nc(=O)n([C@@H]2O[C@H](CO)[C@@H](O)[C@@H]2F)cc1I	PRK	inhibition	cytopathic effect	0.02 µg/mL	KOS	≥25%

The last 2 rows once more:

structure | cells | endpoint | method | tested at | strain | value
CC(=O)OCCOCN1C(N)=CC(N)=NS1(=O)=O | E6SM | EC50 | - | - | B206 (TK-) | >400 µg/mL
Nc1nc(=O)n([C@@H]2O[C@H](CO)[C@@H](O)[C@@H]2F)cc1I | PRK | inhibition | cytopathic effect | 0.02 µg/mL | KOS | ≥25%